Test results reported in the supplement of paper PMC9931576.
Human monoclonal antibodies against the spike receptor-binding domain (heavy:light variable regions). IC50 against pseudoviruses bearing the spike of naturally observed variants; lower = stronger; >10 µg/ml means not reached at the top dose. No active / inactive call. The stated detection limit is 0.0005 µg/ml; values near or below 0.001 µg/ml lie at the floor of the assay.

B1: BD55-5731 (protein)
chain 1: QVQLVQSGSELKKPGASVKLSCKASGYTFSTYAMKWVRQAPGHGLEWMGWINTNTGNPTYAQGFTGRFVFSLDTSVSTAYLQISSLKAEDTAVYYCARVFCSGGICYDVDYWGQGTLVTVSS
chain 2: QSVLTQPPSASGTPGQRVTISCSGSSSNIGSNFVYWYQHLPGTAPKLLIYRDNHRPSGVPDRFSGSKSATSASLAISGLRSEDEADYYCAAWDDGLGGRIFGGGTKLTVL
B2: BD55-5649 (protein)
chain 1: QVQLQQWGAGLLKPSETLSLTCAVYSESFGGFHWSWLRQSPGKGLEWIGAIHHSRGTNYNPSLQSRVTISLHTSKNQFSLKLSSVSAADTAVYYCARGSDHYDSSGYSLSDLFFDYWGQGALVTVSS
chain 2: QSVLTQPPSVSGAPGQRVTISCTGSSSNIGADYDVHWYQQLPGTAPKLLIYGNTNRPSGVPDRFSGSKSGASASLAITGLQAEDEADYYCQSYDSSLSGPNWVFGGGTKLTVL
B3: BD55-5770 (protein)
chain 1: EVQLVESGGGLVQPGGSLRLSCAASGFTFSDYWISWVRQAPGKGLEWVANIKHDGSEKYYVDSVKGRFSISRDNAKKSVYLQMNSLRAEDTAVYYCAREGSRDAYGAGIDYFDYWGQGTLVTVSS
chain 2: EVVMTQSPATLSVSPGERATLSCRASLSLSSNLAWYQQKPGQAPRLLIYGASTRATGIPARFSGSGSGTEFTLTISSLQSEDFAVYYCQQYNTWPPEYTFGQGTKLEIK
B4: BD55-5693 (protein)
chain 1: QMQLVQSGPEVKKPGTSVKVSCKASGFTFITSAVQWVRQARGQRLEWIGWIAVGSGKTDYAQKFQERVTISRDMSTSTAYLVVSGLRSEDTAVYYCAAPNCNTTTCVDGFDIWGQGTMVTVSS
chain 2: EIVLTQSPGTLSLSPGERATLSCRASQSVSRSYLAWYQQKRGQAPRLLIYAASRRATGIPDRFSGSGSGTDFTLTIPRLEPEDFAVYYCQQYGSSPWTFGQGTKVEIK
B5: BD55-1087 (protein)
chain 1: QVQLVQSGAEVKKPGASVKVSCKASGYSISTHSMTWVRQAPGQGLEWMGWVSGYNGDTNYAQRLQDRVTMTTEISTSTAYLELRSLRSDDTAVYYCARGKYDILSGYVWLDPWGQGTLVTVSS
chain 2: DIVMTQSPVSLAVTPGEPASISCRSSQSLLHSSGHNYLDWYVQKPGQSPQVLIYLGSTRASGVPDRFSGSGSGTDFTLKISRVEAEDVGVYYCMQALQTPLTFGGGTKVEIK
B6: BD55-5747 (protein)
chain 1: QVQLVQSGAEVKRPGSSVKVSCKASGDTFSTYAISWVRLAPGQGLEWMGRIIPILGIPTYAQKFQGRVTFTADKSTSTVYMELSSLRSDDTAVYYCARSPHLYESRGYYWRFDYWGQGTLVTVSS
chain 2: DIHMTQSPSSLSASVGDRVTINCRASQNISNYLNWYQQKPGKAPKFLIYAASSLQSGVPSRFSGSGSGTDFSLTISSLQPEDFATYFCQQSYSAPTFGGGTKVEIK
B7: BD55-5784 (protein)
chain 1: QVQLVQSGAEVKKPGASVKVSCRASGYTFTRYYIHWVRQAPGQGLEWMGIINPNGGTPSYAQKFQGRVTMTRDTSTSKVYMELTTLRYEDTAVYYCARDSNMIHHIVAGRPDQFDYWGQGTLVTVSS
chain 2: DIQLTQSPSSLSASVGDRVTITCRASQFINTYLNWYQQQPGKAPRLLIYAASSLQSGVPSRFSGSGSGTDFTLTISSLQPEDFATYYCQQSYVTPPYTFGQGTKLEIK
B8: BD55-5662 (protein)
chain 1: QVQLVESGGGVVQPGRSLRLSCEASGFTFSGYAMHWVRQAPGKGLEWVAVISYDASDKYYADSVKGRFTISRDNSKNTLYLEMNSLRAEDTAVYYCARAGVLRNFDWLLSSGFDYWGQGTLVTVSS
chain 2: DIQMTQSPSSLSASVGDRVTITCQASQDISNFLIWYQQKPGKAPKLLIYDAFNLEPGVPSRFSGSGSGTDFTFTISSLQPEDIATYYCQQYHNLPSFGQGTKLEIK
B9: BD55-1084 (protein)
chain 1: QVQLVQSGAEVKKPGASVKISCKASGYTFTNYHIHWVRQAPGQGLEWMGIINPSAGVTTYAQKFQGRVTMTSDASTSTVYMEVGSLRSDDTALYFCARGHTVTVAAIIYWGQGTLVTVSS
chain 2: QTVVTQEASLTVSPGGAVTLTCASSTGAVTSTYFPNWFQQKPGQPPRALIYSTSNKHSWTPARFSGSLLGGKAALTLSGVQPEDEAVYYCLLYDGDAQHWVFGGGTKLTVL
B10: BD55-5752 (protein)
chain 1: EVQLVESGGGLVKPGGSLRLSCSASGFIFSDYSMTWVRQAPGKTLEWVSSISRDSGLIFYADSVKGRFTTSRDNAKNSLYLQMSHLRVEDTAIYYCAREGPSSLLAFLDYWGQGARVLVSS
chain 2: DIQMTQSPSSLSASVGDRVTITCRASQYISNYLNWYQLKPGKAPKLLIYGASSLHGGVPSRFSGSGSGTDFTLTISSLQPEDFATYYCQQSYVTPALTFGGGTEVEIK
B11: BD55-1092 (protein)
chain 1: EVQLVQSGAEVKKPGESLRISCEGSGYSFTSHYISWVRQMPGKGLEWMGRIDPSDSYTKYSPSFEGLVSISADKSISTAYLQWRSLKASDTAIYYCARQGFFEKLLYPDAFDIWGQGTFVTVSS
chain 2: DIVMTQSPLSLPVTPGEAASIFCRSSQSLLHSDGHNYLDWYLQKPGQSPQLLIYLGSNRASGVPDRFSGSGSGTDFTLKISRVEAEDVGIYYCMQTLQTHALTFGGGTKVEIK
B12: BD55-5655 (protein)
chain 1: EVQLLESGGGLVQPGGSLRLSCTASAFTFSTYAMSWVRQAPGKGLEWVSAISRSGTHTYYADSVKGRFSISRDNSKSTLYLQINSLRAEDTAVYYCAKDLPNHVRSFGGGFDYWGQGTLVTVSS
chain 2: DIVMTQTPLSLSVTPGQPAAISCKSSQSLLHSDGETYLFWYLQKPGQSPQLLIHEVSSRFSGVPDRFSGSGSGTDFTLKISRVEAEDVGVYYCMQAMHLPLTFGGGTKVEIK

molecular target: SARS-CoV-2 Omicron BA.1 spike pseudovirus; assay: pseudovirus neutralization IC50; higher = weaker neutralization
Protocol: (§1)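 Single-round VSV luciferase pseudovirus mixed with antibody dilutions for 1 h and put on Huh-7 cells for about a day; IC50 from the dose curve.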

| Binder | pseudovirus neutralization IC50 [µg/mL] |
| --- | --- |
| B1 | > 10 |
| B2 | 0.159 |
| B3 | > 10 |
| B4 | 0.307 |
| B5 | > 10 |
| B6 | 0.0261 |
| B7 | > 10 |
| B8 | 3.2 |
| B9 | > 10 |
| B10 | > 10 |
| B11 | > 10 |
| B12 | > 10 |

molecular target: SARS-CoV-2 Omicron BA.2 spike pseudovirus; assay: as above
Protocol: as §1

| Binder | pseudovirus neutralization IC50 [µg/mL] |
| --- | --- |
| B1 | > 10 |
| B2 | 2.34 |
| B3 | > 10 |
| B4 | 0.311 |
| B5 | > 10 |
| B6 | 0.046 |
| B7 | > 10 |
| B8 | > 10 |
| B9 | > 10 |
| B10 | > 10 |
| B11 | > 10 |
| B12 | > 10 |

molecular target: SARS-CoV-2 Omicron BA.2.75 spike pseudovirus; assay: as above
Protocol: as §1

| Binder | pseudovirus neutralization IC50 [µg/mL] |
| --- | --- |
| B1 | > 10 |
| B2 | 2.06 |
| B3 | > 10 |
| B4 | 0.0123 |
| B5 | > 10 |
| B6 | 0.00461 |
| B7 | > 10 |
| B8 | > 10 |
| B9 | > 10 |
| B10 | > 10 |
| B11 | > 10 |
| B12 | > 10 |

molecular target: SARS-CoV-2 Omicron BA.5 spike pseudovirus; assay: as above
Protocol: as §1

| Binder | pseudovirus neutralization IC50 [µg/mL] |
| --- | --- |
| B1 | > 10 |
| B2 | 2.19 |
| B3 | > 10 |
| B4 | > 10 |
| B5 | > 10 |
| B6 | 0.0511 |
| B7 | > 10 |
| B8 | > 10 |
| B9 | > 10 |
| B10 | > 10 |
| B11 | > 10 |
| B12 | > 10 |

molecular target: SARS-CoV-2 Omicron BQ.1.1 spike pseudovirus; assay: as above
Protocol: as §1

| Binder | pseudovirus neutralization IC50 [µg/mL] |
| --- | --- |
| B1 | > 10 |
| B2 | 1.99 |
| B3 | > 10 |
| B4 | > 10 |
| B5 | > 10 |
| B6 | 0.653 |
| B7 | > 10 |
| B8 | > 10 |
| B9 | > 10 |
| B10 | > 10 |
| B11 | > 10 |
| B12 | > 10 |

molecular target: SARS-CoV-2 Omicron XBB spike pseudovirus; assay: as above
Protocol: as §1

| Binder | pseudovirus neutralization IC50 [µg/mL] |
| --- | --- |
| B1 | > 10 |
| B2 | 1.93 |
| B3 | > 10 |
| B4 | > 10 |
| B5 | > 10 |
| B6 | 1.77 |
| B7 | > 10 |
| B8 | > 10 |
| B9 | > 10 |
| B10 | > 10 |
| B11 | > 10 |
| B12 | > 10 |

molecular target: SARS-CoV-2 early D614G spike pseudovirus; assay: as above
Protocol: as §1

| Binder | pseudovirus neutralization IC50 [µg/mL] |
| --- | --- |
| B1 | 0.546 |
| B2 | 0.0252 |
| B3 | 2.36 |
| B4 | 0.001 |
| B5 | > 10 |
| B6 | 0.00112 |
| B7 | > 10 |
| B8 | 0.103 |
| B9 | 0.00251 |
| B10 | 1.4 |
| B11 | 0.00225 |
| B12 | 0.00639 |
